In this test the test system is skin surface with redness, induration, swelling and erythema due to exposure to poison ivy. Kind of test: Topical treatment of poison ivy skin reaction. The settings on record: topical medicament containing 2% by weight Tβ4, after one day, same skin surface.

In the case of thymosin beta 4, the “erythema in the treated area compared to the untreated area” value was “significantly reduced”, the “induration in the treated area compared to the untreated area” value is on record as “significantly reduced” and the “itching of the treated area compared to the untreated area” value was “significantly less”.
